Data reported in patent publication US20130303393A1 (RESEARCH DEVELOPMENT FOUNDATION, published 2013).

B1: YMC3 IgG (antibody, V domains shown)
VH: QVQLKQSGAELVKPGASVKLSCKASGYTFTSYDINWVRQRPEQGLEWIGWIFPGDGSTKYNEKFKGKATLTTDKSSSTAYMQLSRLTSEDSAVYFCARGGLYFDYWGQGTTLTVSS
VL: DIQMTQSPSSLSASVGDRVTVTCRASQGIRNYLNWYQQKPGKAPKFLIYYTSRLLPGVPSRFSGSGSGTDYTLTINSLEQEDIATYYCQQGNTPPWTFGQGTKVEIKR
B2: YMH2 IgG (antibody, V domains shown)
VH: EVKLQQSGPELVKPGASVKISCKGSGYAISSSWMNWVKQRPGQGPEWIGRIYPGDGDTNYNGKFKGKATLTADKSSSTAYMQLSSLTSVDSAVYFCARGGLPYAVDYWGQGTSVTVSS
VL: DIQMTQSPSSLSASVGDRVTVTCRASQGIRNYLNWYQQKPGKAPKFLIYYTSRLLPGVPSRFSGSGSGTDYTLTINSLEQEDIATYYCQQGNTPPWTFGQGTKVEIKR
B3: YMB2 IgG (antibody, V domains shown)
VH: EVQLQQSGAELVKPGASVKLSCTASGFNIKDTYMHWVKQRPEQGLEWIGRIDPENGNTKYDPKFQGKATITADTSSNTAYLQLSSLTSEDTAVYYCARFLITTGYFDYWGQGTTLTVSS
VL: DIVLTQSHKFMSTSVGDRVSITCKASQDVGTAVAWYQQKPGQSPKLLIYWASTRHTGVPDRFTGSGSGTDFTLTISNVQSEDLADYFCQQYSSYPLTFGAGTKLEIKR
B4: YMF10 IgG (antibody, V domains shown)
VH: EVQLQQSGAELVRSGASVKLSCTASGFNIKDYYMHWVKQRPEQGLEWIGWIDPENGDTEYAPKFQGKATMSADTSSNTAYLQLSSLTSEDTAVYYCNAGTPFEGLRRADYWGQGTTLTVSS
VL: DIVMTQSHKFMSTSVGDRVSITCKASQDVGTAVAWYQQKPGQSPKLLIYWASTRHTGVPDRFTGSGSGTDFTLTISNVQSEDLADYFCQQYSSYPLTFGAGTKLELNR
B5: YMD1 IgG (antibody, V domains shown)
VH: EVQLVESGAELVRSGASVKLSCTASGFNIKDYYMHWVKQRPEQGLEWIGWIDPENGDTEYAPKFQGKATMTADTSSNTAYLQLSSLTSEDTAVYYCNAGTPFEGLRKADYWGQGTTLTVSS
VL: DIVMTQSHKLMSTSVGDRVSITCKASQDVGTAVAWYQQKPGQSPRLLIYWASTRHTGVPDRFTGSGSGTDFTLTITNVQSEDLADYFCQQYSSYPYTFGGGTKLEIKR
B6: 26.10 IgG (antibody, V domains shown)
VH: QVELQQSGPELVKPGASVRMSCKSSGYIFTDFYMNWVRQSHGKSLDYIGYISPYSGVTGYNQKFKGKATLTVDKSSSTAYMELRSLTSEDSAVYYCAGSSGNKWAMDYWGHGASVTVSS
VL: DIVLTQSPASLAVSLGQRATISCRSSQSLVHSNGNTYLNWYQQKPGQPPKLLIYKVSNRFSGVPARFSGSGSESDFTLTIDPVEEDDAAIYYCSQTTHVPPTFGSGTKLEIKS
notes: also called anti-digoxin 26.10 IgG

Target: T1, Bacillus anthracis Protective Antigen (PA) (Bacillus anthracis, UniProt P13423 30-764)
Experiment: not given

Point of comparison: B3, “M (FL1-Height)” value 28. Against it:
- B1 — higher, 37
- B2 — higher, 109
- B4 — higher, 73
- B5 — higher, 46

Target: T1, Bacillus anthracis Protective Antigen …
Experiment: flow cytometry of NlpA-ZZ spheroplasts displaying the IgG, labeled with PA-FITC

B6: no binding (tested: 50 nM).
